In assay [1] the target is ubiquitin-PA (ubiquitin^1–75 propargylamide activity-based probe) (UniProt P0CG48).

“TssM^193–490 from Burkholderia pseudomallei (domain or fragment)”: the initial velocity of cleavage of ubiquitin-AMC (5 nM TssM, 5 μM Ub-AMC, 30°C) in assay [1] was found to be 418 RFU/s. Besides, the initial velocity of cleavage of NEDD8-AMC (5 nM TssM, 5 μM NEDD8-AMC, 30°C) with NEDD8-PA is 3.6 RFU/s.

The values above are taken from PMC10719079, “The structural basis for deubiquitination by the fingerless USP-type effector TssM” (2023).
